Consider two molecules from ChEMBL document CHEMBL5620363, “HIV-1 protease inhibitors with a P1 phosphonate modification maintain potency against drug-resistant variants by increased interactions with flap residues” (Eur J Med Chem, 2023).

The subject of the experiment is Human immunodeficiency virus 1. Description: Antiviral activity against drug-resistant HIV-1 harboring protease L10F/L33F/M46I/I47V/I50V/F53L/L63P/A71V/L76S/V82I/I85V/L89I mutant infected in human TZM-bl cells using virus particles harvested from 24 hrs drug-treated human CEM cells infected with virus assessed as reduction in viral infection measured after 48 hrs in TZM-bl cells by Firefly luciferase based assay. Format: functional, organism-based. The note with it: Human immunodeficiency virus 1, TZM-bl.

As a reminder, the EC50 is the concentration giving half of the maximal effect. As to `CCOP(=O)(COc1ccc(C[C@H](NC(=O)O[C@H]2CO[C@H]3OCC[C@H]32)[C@H](O)CN(CC(CC)CC)S(=O)(=O)c2ccc3c(c2)OCO3)cc1)OCC`, the EC50 stood at 1.17 µM. The value for `CCOP(=O)(COc1ccc(C[C@H](NC(=O)O[C@H]2CO[C@H]3OCC[C@H]32)[C@H](O)CN(CC(CC)CC)S(=O)(=O)c2ccc(OC)cc2)cc1)OCC` was 5.33 µM.
